Key:
[1] = target: human NaV1.7 voltage-gated sodium channel (human, UniProt Q15858); assay: cell-based or functional assay
[2] = target: hNav 1.5 (human, UniProt Q14524); assay: cell-based or functional assay

Row | Binder | IC50, block of hNaV1.7 [1] [nM] | IC50 [2] [nM]
1 | GWCGDAGATCGKLRLYCCSGFCDCYTKTCKDKSSA [C.geo1[C24Cys(Acm)]] | > 1000 | –
2 | GWCGDAGATCGKLRLYCCSGFCDCYTKTCKDKSSA (HoCys at 24; structure printed only as a drawing) [C.geo1[C24HoCys]] | 1500 | –
3 | GWCGDAGATCGKLRLYCCSGFCDCYTKTCKDKSSA (Pen at 24; structure printed only as a drawing) [C.geo1[C24Pen]] | > 1000 | –
4 | GWCGDAGATCGKLRLYCCSGFCDCYTKTCKDKSSA [C.geo1[1-35]] | – | > 10000
5 | GWCGDAGATCGKLRLYCCSGFCDCYTKTCKDKSSA [C.geo1[desGSH]] | – | > 10000
6 | GWCGDAGATCGKLRLYCCSGFCDCYTKTCKDKSSA [C.geo1[cystamine]] | – | > 10000

From patent US20150322120A1, “SODIUM CHANNEL SENSITIVE CONOPEPTIDES AND ANALOGS, INCLUDING COMPOSITIONS AND METHODS THEREOF” (University of Utah Research Foundation, published 2015)
